Compound potency records, mixed from different reports. Data source: NIAID ChemDB in PubChem.

Blank or dashed fields: not listed here.

compound	read by	cell line	endpoint	kind	protein	strain or isolate	dose	setting	species	value
O=c1ccn([C@H]2CC[C@@H](COP(=O)(O)F)O2)c(=O)[nH]1	p24	PBMC	EC50	culture	-	-	-	-	HIV-1	100 µM
CCN(CC)CCOC(=O)C(O)(c1ccccc1)c1ccco1	-	-	MIC bound	culture	-	H37Rv	-	-	Mycobacterium tuberculosis	>6.25 µg/mL
Cc1cn(C2CC(OP(=O)(O)OCC3OC(n4cnc5c(=O)[nH]c(N)nc54)CC3OP(=O)(O)OCC3OC(n4cnc5c(=O)[nH]c(N)nc54)CC3OP(C)(=O)OCC3OC(n4cnc5c(=O)[nH]c(N)nc54)CC3OP(C)(=O)OCC3OC(n4cnc5c(N)ncnc54)CC3OP(C)(=O)OCC3OC(n4cnc5c(=O)[nH]c(N)nc54)CC3O)C(COCc3ccc(OCc4ccccc4)c(OCc4ccccc4)c3)O2)c(=O)[nH]c1=O	cytopathic effect / MTT	MT-4	EC50	culture	-	-	-	-	HIV-1	39 µg/mL
O=[N+]([O-])c1ccc(Cn2nnc(-c3cc([N+](=O)[O-])cc([N+](=O)[O-])c3)n2)cc1	-	-	MIC	culture	-	6509/96	-	7 d	Mycobacterium kansasii	2 µM
Cn1c(=O)c([N+](=O)[O-])cn(-c2ccc([N+](=O)[O-])cc2[N+](=O)[O-])c1=O	-	-	inhibition	culture	-	-	6.25 µg/mL	-	Mycobacterium tuberculosis	<90%
O=c1c2ccccc2c(=O)n2n1P(Cl)CP2Cl	BACTEC	-	inhibition	culture	-	H37Rv	12.5 µg/mL	-	Mycobacterium tuberculosis	0%
O=[N+]([O-])c1ccc(S(=O)(=O)c2ccc([N+](=O)[O-])cc2[N+](=O)[O-])c([N+](=O)[O-])c1	strand transfer	-	IC50	target	Integrase	-	-	-	HIV-1	76.5 µM
Cc1cn([C@H]2C[C@H](F)[C@@H](COP(=O)(O)C(F)F)O2)c(=O)[nH]c1=O	trypan blue	H9	CC50	toxicity	-	-	-	-	-	>100 µM
CCCCN(CCCl)C[C@@H]1CS[C@H](C)O1.O=C(O)C(=O)O	BACTEC	-	inhibition	culture	-	H37Rv	12.5 µg/mL	-	Mycobacterium tuberculosis	0%
CC1=NO[C@@]2(CC[C@H](C)N3C[C@H]2n2cc(C(=O)NCc4ccc(F)cc4F)c(=O)c(OC(=O)N(C)Cc4ccc(OP(=O)(O)O)cc4)c2C3=O)C1	luminescence	MT-4	EC50	culture	-	IIIB	-	-	HIV-1	0.1 µM
Nc1cc([As]=O)ccc1O	p24	PBL	EC50	culture	-	IIIB	-	-	HIV-1	<0.15 µg/mL
O=[N+]([O-])c1cc2nc(Cl)[nH]c2cc1[N+](=O)[O-]	resazurin	-	MIC bound	culture	-	H37Rv	-	-	Mycobacterium tuberculosis	>6.25 µg/mL
Cc1cn([C@H]2C=C[C@@H](COP(=O)(O)F)O2)c(=O)[nH]c1=O	p24	PBMC	EC50	culture	-	-	-	-	HIV-1	0.05 µM
O=C1OCCN1[N+](=O)[O-]	BACTEC	-	MIC bound	culture	-	H37Rv	-	-	Mycobacterium tuberculosis	≤12.5 µg/mL
Cc1cn([C@H]2C=C[C@@H](CO)O2)c(=O)[nH]c1=O	p24	PBMC	EC50	culture	-	-	-	-	HIV-1	0.05 µM

For reference, 2 entries again:

compound	read by	cell line	endpoint	kind	protein	strain or isolate	dose	setting	species	value
O=c1c2ccccc2c(=O)n2n1P(Cl)CP2Cl	BACTEC	-	inhibition	culture	-	H37Rv	12.5 µg/mL	-	Mycobacterium tuberculosis	0%
O=C1OCCN1[N+](=O)[O-]	BACTEC	-	MIC bound	culture	-	H37Rv	-	-	Mycobacterium tuberculosis	≤12.5 µg/mL

ECn: concentration that inhibits the pathogen or its effect by n%. CCn: concentration that lowers growth or viability of the cells by n%. Conditions beyond the fields shown may differ between rows. Percent inhibition refers to the dose given; in toxicity tests it is the harm to the cells. ICn is the concentration giving n% inhibition. MIC bound comes from a single tested concentration.